A mixed list of measured activities; the numbers were collected in NIAID ChemDB.

All rows: whole-cell or culture tests; species: HIV-1; cells: MT-4; measure: EC50

An empty or dashed field is not shown. Neighbouring rows are from separate reports. Two numbers with a dash give a range or band. ECn is the concentration giving n% inhibition of infection, replication or growth.

C#CCOCn1c(Cc2cc(F)ccc2F)c(CC)c(=O)[nH]c1=O ; strain or isolate: EFV-resistant (K103R V179D P225H) ; read by: MTT ; value: >100 µM
CCc1c(Cc2cc(C)cc(C)c2)n(COCC#Cc2ccc(C=O)cc2)c(=O)[nH]c1=O ; strain or isolate: IIIB ; mutations: K103N + Y181C ; read by: MTT ; value: 4 µM
Cc1cc(C#N)cc(C)c1Oc1nc(NC2CCN(Cc3ccc(S(N)(=O)=O)cc3)CC2)nc2sccc12 ; strain or isolate: IIIB ; mutations: NNRTI-resistant (RT F227L V106A) ; read by: MTT ; value: 0.00885 µM
CCc1c(Cc2ccccc2C)n(COC/C(Br)=C(\Br)c2ccccc2)c(=O)[nH]c1=O ; strain or isolate: IIIB ; mutations: K103N + Y181C ; read by: MTT ; value: >26 µM
Cc1cc(/C=C/C#N)cc(C)c1Oc1nc(NC2CCN(Cc3cccc(Br)c3)CC2)nc2ccsc12 ; strain or isolate: IIIB ; mutations: NNRTI-resistant (RT K103N) ; read by: MTT ; value: 0.0295 µM
N#Cc1cc(Cl)cc(Oc2c(Br)ccc(CC(=O)Nc3ccc(S(N)(=O)=O)cc3Cl)c2F)c1 ; strain or isolate: HXB2D ; mutations: Wild type ; value: 0.0013 µM
C=C(C)COCn1c(Cc2cc(F)ccc2F)c(CC)c(=O)[nH]c1=O ; strain or isolate: IIIB ; read by: MTT ; value: 0.2 µM
Cc1cc(/C=C/C#N)cc(C)c1Oc1nc(NC2CCN(Cc3cccc(F)c3)CC2)nc2ccsc12 ; strain or isolate: IIIB ; mutations: NNRTI-resistant (RT E138K) ; read by: MTT ; value: 0.0316 µM
CCc1c(Cc2cc(C)cc(C)c2)n(Cc2ccc(C#CCF)cc2)c(=O)[nH]c1=O ; read by: MTT ; value: 0.02 µM
CCc1c(Cc2cc(C)cc(C)c2)n(COCC#Cc2cc3ccccc3c3ccccc23)c(=O)[nH]c1=O ; strain or isolate: IIIB ; mutations: EFV-resistant (K103R V179D P225H) ; read by: MTT ; value: >80 µM
Cc1cc(C#N)cc(C)c1Oc1nc(NC2CCC(NCc3cccc(C(F)(F)F)c3)CC2)nc2ccsc12 ; strain or isolate: IIIB ; mutations: NNRTI-resistant (RT Y181C) ; read by: MTT ; value: >707 µM
C=C(C)COCn1c(Cc2ccccc2)c(CF)c(=O)[nH]c1=O ; strain or isolate: IIIB ; mutations: EFV:K103R+V179D+P225H ; read by: MTT ; value: >20 µM
CCOCn1c(Cc2cc(C(F)(F)F)cc(C(F)(F)F)c2)c(C(C)C)c(=O)[nH]c1=O ; strain or isolate: A17 ; mutations: K103N + Y181C ; read by: MTT ; value: >100 µM
Cc1cc(/C=C/C#N)cc(C)c1Oc1nc(NC2CCN(Cc3cccc(Cl)c3)CC2)nc2ccsc12 ; strain or isolate: IIIB ; mutations: NNRTI-resistant (RT Y181C) ; read by: MTT ; value: 0.0711 µM
C=CCOCn1c(Cc2cc(C(F)(F)F)cc(C(F)(F)F)c2)c(CC)c(=O)[nH]c1=O ; strain or isolate: EFV-resistant (K103R V179D P225H) ; read by: MTT ; value: >100 µM
CCc1c(Cc2cc(C)cc(C)c2)n(COC/C(Br)=C(\Br)c2ccccc2)c(=O)[nH]c1=O ; strain or isolate: IIIB ; mutations: Y181C ; read by: MTT ; value: 1.4 µM
COC(=O)Cn1c(-c2ccccc2F)nc2c(OC)cccc21 ; strain or isolate: IIIB ; value: 2.29 µg/mL
Cc1nc(-c2ccc(N3C(=O)C=CC4C3c3ccccc3N4C)cc2)no1 ; strain or isolate: LAI ; read by: cytopathic effect / MTT ; value: 1–32 µM
C=C(C)COCn1c(Cc2ccccc2)c(CO)c(=O)[nH]c1=O ; strain or isolate: Clinical isolates ; mutations: Y181C ; read by: MTT ; value: >20 µM
Nc1nc(=O)n([C@@H]2CC[C@H](CO)O2)cc1F ; strain or isolate: RF ; read by: p24 ; value: 0.03 µM
CC1(C)Oc2ccc3ccc(=O)oc3c2[C@@H](OC(=O)C23CCC(C)(C(=O)O2)C3(C)C)[C@H]1OC(=O)C12CCC(C)(C(=O)O1)C2(C)C ; strain or isolate: HXB2 ; read by: p24 ; value: 0.09 µM
CN1c2ccccc2C2C1C=C(C#N)C(=O)N2c1ccc(-c2ccsc2)cc1 ; strain or isolate: LAI ; read by: cytopathic effect / MTT ; value: >32 µM
Cc1cc(/C=C/C#N)cc(C)c1Oc1nc(NC2CCN(Cc3ccc(Br)cc3)CC2)nc2ccsc12 ; strain or isolate: IIIB ; mutations: NNRTI-resistant (RT L100I) ; read by: MTT ; value: 0.0582 µM
CCc1c(Cc2cc(C)cc(C)c2)n(COCCF)c(=O)[nH]c1=O ; strain or isolate: IIIB ; mutations: EFV:K103R+V179D+P225H ; read by: MTT ; value: 20 µM
COc1cccc2c1nc(-c1ccccc1F)n2Cc1ccc(C#N)cc1 ; strain or isolate: IIIB ; value: 12.23 µg/mL
CN1c2ccccc2C2C1C=C(c1noc(C(F)(F)F)n1)C(=O)N2c1ccc([N+](=O)[O-])cc1 ; strain or isolate: LAI ; read by: cytopathic effect / MTT ; value: <1 µM
C=C(C)Cn1c(-c2ccccc2F)nc2c(OC)cccc21 ; strain or isolate: IIIB ; value: 0.019 µg/mL
Cc1cc(C)c(-n2nnnc2SCC(=O)Nc2ccc(S(N)(=O)=O)cc2C)c(C)c1 ; read by: p24 ; value: <10 µM
[O-][n+]1onc2ncnc(N3CC[N+]4(CC3)CC[N+]3(CCN(c5ncnc6no[n+]([O-])c56)CC3)CC4)c21 ; strain or isolate: Diphenyl sulfone-resistant (RT-Y181C) ; mutations: RT-Y181C ; read by: cytopathic effect / XTT ; value: 1.2 µM
CC(=O)c1ccc(NC(=O)CSc2nnnn2-c2c(C)cc(C)cc2C)cc1 ; read by: p24 ; value: <10 µM
COc1cccc2c1nc(-c1ccccc1F)n2Cc1ccc(C)cc1 ; strain or isolate: IIIB ; value: >11.7 µg/mL
N#CC1=CC2C(c3ccccc3N2CCCN2CCCC2)N(c2ccc([N+](=O)[O-])cc2)C1=O ; strain or isolate: LAI ; read by: cytopathic effect / MTT ; value: 1–32 µM
Cc1ccc(-n2nnnc2SCC(=O)Nc2ccccc2Cl)c([N+](=O)[O-])c1 ; read by: p24 ; value: <10 µM
CCc1c(Cc2cc(C)cc(C)c2)n(COCCO)c(=O)[nH]c1=O ; strain or isolate: IIIB ; mutations: EFV:K103R+V179D+P225H ; read by: MTT ; value: 22 µM
O=C(CSc1nnnn1-c1cccc2cnccc12)Nc1ccccc1Cl ; read by: p24 ; value: <10 µM
CCOCn1c(Cc2cc(F)ccc2F)c(CC)c(=O)[nH]c1=O ; strain or isolate: EFV-resistant (K103R V179D P225H) ; read by: MTT ; value: >100 µM

The last 4 rows once more:

| compound | strain or isolate | mutations | read by | value |
|---|---|---|---|---|
| Cc1ccc(-n2nnnc2SCC(=O)Nc2ccccc2Cl)c([N+](=O)[O-])c1 |  |  | p24 | <10 µM |
| CCc1c(Cc2cc(C)cc(C)c2)n(COCCO)c(=O)[nH]c1=O | IIIB | EFV:K103R+V179D+P225H | MTT | 22 µM |
| O=C(CSc1nnnn1-c1cccc2cnccc12)Nc1ccccc1Cl |  |  | p24 | <10 µM |
| CCOCn1c(Cc2cc(F)ccc2F)c(CC)c(=O)[nH]c1=O | EFV-resistant (K103R V179D P225H) |  | MTT | >100 µM |